Assay results published in paper PMC7933434, “Entropy-driven binding of gut bacterial β-glucuronidase inhibitors ameliorates irinotecan-induced toxicity” (Communications Biology, 2021).
Read-outs that look alike come from different tables or passages of the source.

Amino acid sequences for entries named in this document (tags omitted). A change or cut given only in a name is not applied to a line headed by its entry.
UniProt Q8XP19: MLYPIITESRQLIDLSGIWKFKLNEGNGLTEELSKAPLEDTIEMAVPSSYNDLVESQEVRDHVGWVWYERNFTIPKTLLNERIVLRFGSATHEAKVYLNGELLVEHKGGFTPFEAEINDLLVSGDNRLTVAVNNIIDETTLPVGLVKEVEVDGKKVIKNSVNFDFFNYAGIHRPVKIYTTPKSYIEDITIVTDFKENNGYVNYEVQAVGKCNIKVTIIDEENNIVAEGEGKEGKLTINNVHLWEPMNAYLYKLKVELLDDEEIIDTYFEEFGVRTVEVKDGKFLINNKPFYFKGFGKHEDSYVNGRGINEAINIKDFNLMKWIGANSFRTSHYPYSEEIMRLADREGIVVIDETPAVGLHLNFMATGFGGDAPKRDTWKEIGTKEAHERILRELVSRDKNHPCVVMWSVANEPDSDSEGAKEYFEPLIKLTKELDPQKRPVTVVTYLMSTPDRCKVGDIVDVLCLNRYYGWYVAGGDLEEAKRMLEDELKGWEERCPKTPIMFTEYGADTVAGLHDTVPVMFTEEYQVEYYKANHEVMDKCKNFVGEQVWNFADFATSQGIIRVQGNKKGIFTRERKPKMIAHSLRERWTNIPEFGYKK

Target: CpGUS (Clostridium perfringens GUS) (Clostridium perfringens, UniProt Q8XP19)
Assay: GUS inhibition assay, hydrolysis of 4-methylumbelliferyl-β-glucuronide, CpGUS
[1] = 50 mM sodium acetate pH 4.5, 37 °C

Compound | Ki [1] | Ki
CCCCCCCCC[C@@H]1NC[C@@H](O)[C@H](O)[C@H]1C(=O)O [Inhibitor 4, C6-nonyl UIFG] | 26 nM | 
O=C(O)[C@H]1CNC[C@@H](O)[C@@H]1O [Inhibitor 1, Uronic isofagomine] | 6.5 nM | 6.5 nM
CCC[C@@H]1NC[C@@H](O)[C@H](O)[C@H]1C(=O)O [Inhibitor 2, C6-propyl UIFG] | 620 nM | 
CCCCCC[C@@H]1NC[C@@H](O)[C@H](O)[C@H]1C(=O)O | 170 nM | 
